From ChEMBL document CHEMBL4732113, “Exploiting the tolerant region I of the non-nucleoside reverse transcriptase inhibitor (NNRTI) binding pocket. Part 2: Discovery of diarylpyrimidine derivatives as potent HIV-1 NNRTIs with high Fsp values and favorable drug-like properties” (Eur J Med Chem, 2021) come the findings set out here.

The nature of the series: Selectivity index, ratio of CC50 for human MT4 cells to EC50 for antiviral activity against HIV HIV1 RES056 harboring K103N/Y181C double mutant infected in human MT4 cells. The series is classed as toxicity, cell-based. Particulars: read-out: Ratio CC50/EC50.

For the compound `Cc1cc(C#N)cc(C)c1Oc1nc(Nc2ccc(C#N)cc2)nc(N)c1Br` [ETRAVIRINE], the selectivity ratio is above 76.
